Like-named read-outs stand apart in the source and are kept apart here.
Experiment: Temperature optimum of the enzymic reaction
Format: biochemical, Lactobacillus minor
Procedure: The optimal assay temperature was determined by measuring the enzyme activity from 25° C. to 60° C. The assay mixture corresponded to the standard concentration of ethyl 4-chloro-3-oxo-butanoate and NADPH.

B1: L. minor alcohol dehydrogenase: R-specific alcohol dehydrogenase from Lactobacillus minor, SEQ ID NO: 4, overexpressed in Escherichia coli RB 791 (protein, listed as Lactobacillus sp.)
chain: MRGSHHHHHHGSMTDRLKGKVAIVTGGTLGIGLAIADKFVEEGAKVVITGRHADVGEKAARSIGGTDVIRFVQHDASDETGWTKLFDTTEEAFGPVTTVVNNAGIAVSKSVEDTTTEEWRKLLSVNLDGVFFGTRLGIQRMKNKGLGASIINMSSIEGEVGDPALGAYNASKGAVRIMSKSAALDCALKDYDVRVNTVHPGYIKTPLVDDLEGAEEMMSQRTKTPMGHIGEPNDIAWICVYLASDESKFATGAEFVVDGGYTAQ
temperature optimum of the enzymic reaction: 55 °C | temperature optimum of the enzymic reaction (listed as Lactobacillus minor alcohol dehydrogenase): about 55 °C
